Results on two compounds are retold here after patent US6482982B1, “Halogenated antituberculosis agents” (University of Sciences of Philadelphia, priority 2001, dated 2002).

The test system of the series is M. tuberculosis H37Rv. Kind of series: Minimum bactericidal concentration (MBC) against H37Rv. The format is cell-based, Mycobacterium tuberculosis.

For the compound `CC(=O)Nc1ccc(/C=N/NC(N)=S)cc1F` [Compound 16, 4-Acetamido-3-fluorobenzaldehyde thiosemicarbazone], the “H37Rv MBC/MIC” value is listed as above 62.5.

`Nc1cc(O)c(C(=O)O)cc1F` [Compound 12, 4-Amino-5-fluorosalicylic Acid]: the “H37Rv MBC/MIC” value is above 64.
